Data taken from patent US8753605B2, “Imaging probes, methods of making imaging probes, and methods of imaging” (The Board of Trustees of the Leland Stanford Junior …, priority 2010, dated 2014).

Key:
Type in all cases: in vivo
head and neck tumor = test: microPET imaging of mice bearing head and neck cancer tumor; conditions: 50-70 μCi spiked with 45 μg cold Ac-Cys-ZEGFR:1907, tail vein
Experimental: PET imaging of tumor-bearing mice was performed on a microPET R4 rodent model scanner (Siemens Medical Solutions USA, Inc.). The mice bearing head and neck cancer were injected with ^18F-FBEM-CYS-ZEGFR:1907 (1.85-2.59 MBq, 50-70 μCi, 2-3 μg) spiked with cold Ac-Cys-ZEGFR:1907 (45 μg) via the tail vein. For the treated group, mice were scanned three weeks after anti-cancer drug treatment. At different times after the injection, the mice were anesthetized with 2% isoflurane and placed in the prone position and near the center of the field of view of a microPET. The 3-min static scans were obtained, and the images were reconstructed by a two-dimensional ordered subsets expectation maximum (OSEM) algorithm.

[1] = system: EGFR overexpression A431 tumor xenograft; test: microPET imaging of mice bearing A431 tumor
SUM159 TNBC tumors = test: microPET imaging of nude mice bearing SUM159 TNBC tumors; conditions: nu/nu mouse bearing SUM159
Experimental: Ac-Cys-ZEGFR:1907 was chemically synthesized using a solid phase peptide synthesizer and then site-specifically conjugated with 1,4,7,10-tetraazacyclododecane-1,4,7,10-tetraacetic acid (DOTA) for radiolabeling or N-2-(4-^18F-fluorobenzamido)-ethyl]-maleimide (^18F-FBEM)^3. The in vitro cell uptake study was performed using SUM159 cells. MicroPET imaging using ^64Cu-DOTA-ZEGFR:1907 or ^18F-FBEM-ZEGFR:1907 were evaluated in nude mice bearing subcutaneous MDA-MB-231 and SUM159 TNBC tumors. Biodistribution studies were performed to understand the in vivo pharmacokinetics of ZEGFR:1907. Immunohistochemistry studies were performed to confirm imaging findings ex vivo (data not shown).

Substance: ^18F-FBEM-CYS-ZEGFR:1907: N-2-(4-18F-fluorobenzamido)ethyl-maleimide attached to the Cys residue of Ac-Cys-ZEGFR:1907, an EGFR Affibody peptide (SEQ ID NO: 1)
- tumor uptake (microPET) (head and neck tumor): high uptake
- time of best imaging contrast ([1]; microPET): 3 h post-injection
- tumor uptake (microPET) ([1]; probe 50-70 μCi coinjected with 45 μg cold Ac-Cys-ZEGFR:1907, or 18F-FDG 90 μCi, tail vein): high uptake in tumor at all time-point
- imaging contrast at tumor (SUM159 TNBC tumors; as early as 1.5 h p.i.): high contrast imaging
- accumulation in tumor (speed) (SUM159 TNBC tumors; tail vein injection): fast accumulation
